A mixed list of measured activities; the numbers were collected in NIAID ChemDB.

Common to all: tests on isolated targets; organism: HIV-1; protein: Reverse transcriptase; read-out: fold resistance

Blank or dashed fields: not listed here.

structure | method | strain | mutations | result
CCN1c2ncc(CCOc3ccc(/C=C(\C)C(=O)O)c4ccccc34)cc2C(=O)N(C)c2ccc(F)nc21 | nucleotide incorporation / radiometric | - | RT-K103N Y181C | 1–10
Cc1cc(C2CC2)cc(C)c1-n1c(Br)nnc1SCC(=O)Nc1ccc(C(=O)O)cc1Cl | nucleotide incorporation / radiometric | - | RT-Y188L | >2
CCc1cc(NCc2nc3c(C)ccc(C)c3o2)c(=O)[nH]c1C | nucleotide incorporation | - | RT-Y188H | 8.4
CCN1c2ncc(CCOc3ccc(CCC(=O)O)c4ccccc34)cc2C(=O)N(C)c2ccc(Cl)nc21 | nucleotide incorporation / radiometric | - | RT-V106A | 1–10
CCN1c2ncc(CCOc3ccc(-c4ccncc4)cc3)cc2C(=O)N(C)c2cccnc21 | nucleotide incorporation / radiometric | IIIB | RT-K103N Y181C | >1
CCN1c2ncc(CCOc3ccc(CC(C)C(=O)O)c4ccccc34)cc2C(=O)N(C)c2ccc(F)nc21 | nucleotide incorporation / radiometric | - | RT-Y188L | >10
CCc1ccc(-n2c(Br)nnc2SCC(=O)Nc2ccc(C(=O)NCCC#N)cc2Cl)c2ccccc12 | nucleotide incorporation / radiometric | - | RT-Y188L | >1
CCN1c2ncc(CCOc3ccc(-c4ccc(C(O)C(=O)O)cc4)cc3C)cc2C(=O)N(C)c2cccnc21 | nucleotide incorporation / radiometric | IIIB | RT-K103N Y181C | 1
CCN1c2ncc(CCOc3cccc4c3ccc[n+]4[O-])cc2C(=O)Nc2c(C)cc(Cl)nc21 | nucleotide incorporation / radiometric | RT -K103N | RT-K103N | 2.2
CCc1ccc(-n2c(SCC(=O)Nc3ccc(C(=O)O)cc3Cl)nnc2C(F)F)c2ccccc12 | nucleotide incorporation / radiometric | - | RT-Y188L | >2
CCN1c2ncc(CCOc3ccc(C(=O)NCc4cc[n+]([O-])cc4)cc3C)cc2C(=O)N(C)c2cccnc21 | nucleotide incorporation / radiometric | IIIB | RT-K103N Y181C | >1
O=C(CSc1nnc(Br)n1-c1ccc(C2CC2)c2ccccc12)Nc1ccc(C(=O)N[C@@H](Cc2ccc(O)cc2)C(=O)O)cc1Cl | nucleotide incorporation / radiometric | - | RT-Y188L | >1
CCN1c2ncc(CCOc3ccc(NC(=O)c4ccc(C(=O)O)cc4)cc3C)cc2C(=O)N(C)c2cccnc21 | nucleotide incorporation / radiometric | IIIB | RT-K103N Y181C | 1
Cc1cc(C2CC2)cc(Cl)c1-n1c(Br)nnc1SCC(=O)Nc1ccc(C(=O)O)cc1Cl | nucleotide incorporation / radiometric | - | RT-Y188L | >2
CCN1c2ncc(CCOc3ccc(CC(=O)O)c4ccccc34)cc2C(=O)N(C)c2ccc(Cl)nc21 | nucleotide incorporation / radiometric | - | RT-K103N Y181C | 1–10
CCN1c2ncc(CCOc3ccc(S(=O)(=O)c4ccc(C(=O)O)cc4)cc3C)cc2C(=O)N(C)c2cccnc21 | nucleotide incorporation / radiometric | IIIB | RT-K103N Y181C | 1
O=C(CSc1nnc(Br)n1-c1c(Cl)cc(C2CCC2)c2ccccc12)Nc1ccc(C(=O)O)cc1Cl | nucleotide incorporation / radiometric | - | RT-Y188L | >1
CCN1c2ncc(CCOc3ccc(-c4cc(C)nc(C)c4)cc3C)cc2C(=O)N(C)c2cccnc21 | nucleotide incorporation / radiometric | IIIB | RT-K103N Y181C | 1
CCN1c2ncc(CCOc3ccc(NS(=O)(=O)C(F)(F)F)c4ccccc34)cc2C(=O)N(C)c2ccc(F)nc21 | nucleotide incorporation / radiometric | - | RT-Y188L | >10
NS(=O)(=O)c1ccc(NC(=O)CSc2nnc(C(F)F)n2-c2ccc(C3CC3)c3ccccc23)c(Cl)c1 | nucleotide incorporation / radiometric | - | RT-Y188L | >2
CCN1c2ncc(CCOc3ccc(-c4ccc(C(=O)O)cc4)cc3C)cc2C(=O)N(C)c2cccnc21 | nucleotide incorporation / radiometric | IIIB | RT-K103N Y181C | 1

The first 2 rows once more:

structure,method,strain,mutations,result
CCN1c2ncc(CCOc3ccc(/C=C(\C)C(=O)O)c4ccccc34)cc2C(=O)N(C)c2ccc(F)nc21,nucleotide incorporation / radiometric,-,RT-K103N Y181C,1–10
Cc1cc(C2CC2)cc(C)c1-n1c(Br)nnc1SCC(=O)Nc1ccc(C(=O)O)cc1Cl,nucleotide incorporation / radiometric,-,RT-Y188L,>2

Rows are shuffled and stem from different studies. Fold resistance has wild type as its base. Two numbers with a dash give a range or band.